{"source": "paper PMC7794844", "about": "(Molecules, 2020)", "biological_target": "SARS-CoV-2 spike S-RBD protein (Severe acute respiratory syndrome coronavirus 2, UniProt P0DTC2)", "experiment": "SPR affinity screen, compounds over immobilized S-RBD-mFc (CM5 chip)", "settings": "target S-RBD, 1:1 binding model for steady state affinity"}
{"smiles": "c1ccc2c(CCNc3ccc(Nc4ccncc4)cc3)c[nH]c2c1", "values": [{"measurement": "Kd", "value": 8.37, "unit": "µM"}]}
